Compound potency records, mixed from different reports. Data source: NIAID ChemDB in PubChem.

Common to all: growth or infection tests; agent: Mycobacterium tuberculosis

ECn is the concentration giving n% inhibition of infection, replication or growth. MIC bound comes from a single tested concentration. Fold resistance has wild type as its base. A number after MIC or MFC names an inhibition level or a share of isolates. Two numbers with a dash give a range or band. Rows are shuffled and stem from different studies. An empty or dashed field is not shown. Inhibition is in % at the dose shown (toxicity tests: loss of growth or viability).

SMILES,cells,strain,mutations,tested at,read-out,method,result
COc1ccccc1C1CC(c2ccccc2)=NN1C(=O)c1ccc(O)cc1,-,H37Ra,-,-,MBC,visual reading,537 µM
Cc1ccc(/C=C2\COc3ccccc3C2=O)cc1,-,H37Rv,-,-,EC50,broth dilution / resazurin,1.43 µg/mL
COc1cc(-c2nc(N)nc(N)n2)ccc1OCc1ccc(Cl)cc1,-,H37Rv,-,-,MIC,resazurin,3.63 µM
C[C@@H]1CN(c2c(F)c(N)c3c(=O)c(C(=O)O)cn(C4CC4)c3c2F)C[C@H](C)N1,-,25 strains,-,-,MIC50,-,0.1 µg/mL
CSc1ccc(COc2ccc(-c3nc(N)nc(N)n3)cc2)cc1,-,H37Rv,-,-,MIC,resazurin,5.98 µM
CC(=O)Nc1ccc(S(=O)(=O)NNC(=O)C(=O)Nc2cccc(Cl)c2)cc1,-,H37Rv,-,12.5 µg/mL,inhibition,BACTEC,23%
O=C1/C(=C/c2cccc(Br)c2)Cc2ccccc21,-,H37Rv,-,12.5 µg/mL,inhibition,broth dilution / resazurin,51%
Cc1ccc(C(=O)Nn2c(C)ccc2C)cc1,-,Erdman,-,-,MIC,-,>8 µg/mL
CC(C)=CCOc1c2ccoc2cc2oc(=O)ccc12.NNC(=O)c1ccncc1,-,H37Rv clinical isolate CRY4,Ethambutol-resistant,-,MIC100,agar,3.12 µg/mL
CC(NC(=O)C(NC(=O)c1ccc[n+](Cc2ccccc2)c1)C(C)C)C(N)=O.[Br-],-,H37Rv,-,12.5 µg/mL,inhibition,BACTEC,7%
CO[C@H]1/C=C/O[C@@]2(C)Oc3c(C)c(O)c4c(O)c(c5c(c4c3C2=O)NC2(CCN(CC(C)C)CC2)N=5)=NC(=O)/C(C)=C\C=C\[C@H](C)[C@H](O)[C@@H](C)[C@@H](O)[C@@H](C)[C@H](OC(C)=O)[C@@H]1C,-,CSU28,-,-,MIC,-,≤0.125 µg/mL
COc1ccc(/C=C2\Oc3c(Br)c(OC)cc(OC)c3C2=O)cc1,-,H37Rv,-,12.5 µg/mL,inhibition,BACTEC,-9%
CCC1CCC(=NNC(=O)Cc2csc3nc(-c4ccccc4)cn23)CC1,-,H37Rv,-,6.25 µg/mL,inhibition,-,32%
CO[C@H]1/C=C/O[C@@]2(C)Oc3c(C)c(O)c4c(O)c(c(/C=N/N5CCN(C6CCCC6)CC5)c(O)c4c3C2=O)NC(=O)/C(C)=C\C=C\[C@H](C)[C@H](O)[C@@H](C)[C@@H](O)[C@@H](C)[C@H](OC(C)=O)[C@@H]1C,-,13684,-,-,MIC,-,0.04 µg/mL
CCCc1c2c([nH]c(=O)c1C)C(=O)c1[nH]c(=O)c(C)c(CCC)c1C2=O,-,H37Rv,Cycloserine-resistant,-,MIC90,resazurin / fluorescence,0.14 µg/mL
Cc1ccc(C(=O)N=Nc2c(Cl)c(O)c3ccccc3c2O)cc1,-,H37Rv,-,-,MIC bound,BACTEC,≤12.5 µg/mL
Fc1ccc(OCc2nn3c(-c4ccc(Br)cc4)nnc3s2)cc1,-,Clinical isolate MDRTB,Isoniazid- and rifampin-resistant,-,MIC,-,8 µg/mL
CC(CC(=O)NN)Nc1ccc2ccccc2c1,-,H37Rv,-,-,EC50,-,5 µg/mL
Cc1ccc(-c2nnc(CON=C(c3ccccc3)c3ccccc3)o2)cc1,-,-,-,12.5 µg/mL,inhibition,-,7–56%
CCc1nc2ccc(C)cc2n1CCCCSc1ccc(Cl)cc1,-,H37Rv,QcrB M342T,-,fold resistance,turbidity / fluorescence,>6.3
COC(=O)c1cccc2oc3ccccc3c(=O)c12,-,H37Rv,-,-,MIC,-,>32 µg/mL
CN1c2ccccc2SC12C(=O)N(c1ccccc1)C(=O)N2c1ccccc1,-,H37Rv,-,-,MIC,BACTEC,≥12.8 µg/mL
CCc1nc2ccccc2n1CCCCOc1cccc(C)c1,-,H37Rv,Rv1339 V90M,-,fold resistance,turbidity / fluorescence,6.7
C=C1CC(OC(C)=O)/C=C(\C)CC[C@@H](C(C)(C)O)C[C@@H]1O,-,H37Rv,-,12.5 µg/mL,inhibition,BACTEC,-2%
Cc1ccc(C)n1NC(=O)c1ccccc1,-,Erdman,-,-,MIC,-,16 µg/mL
COc1cc(C2=NN(C(=O)COc3ccc4ccccc4c3)C3CCCC23)c(C)cc1OCC(=O)O,-,H37Rv,-,-,MIC,-,>6.25 µg/mL
NNC(=O)c1ccncc1,-,H37Ra,-,-,MIC,MTT,5 µM
COc1ccc2[nH]c(C)c(CN(C(C)=O)C(C)=O)c(=O)c2c1,-,H37Rv,-,-,MIC bound,BACTEC,>12.5 µg/mL
CC1SC2(CCCCC2)N(NC(=O)Cc2csc3nc(-c4ccc(Cl)cc4)cn23)C1=O,-,H37Rv,-,-,MIC,-,<6.25 µg/mL
Clc1ccc(-c2nnc3sc(COc4ccc5ccccc5c4)nn23)cc1,-,Clinical isolate MDRTB,Isoniazid- and rifampin-resistant,-,MIC,-,8 µg/mL
CCC1CCC2(CC1)SCC(=O)N2NC(=O)Cc1csc2nc(-c3ccc(Cl)cc3)cn12,-,H37Rv,-,-,MIC,-,>6.25 µg/mL
CCc1nc2ccccc2n1CCCNc1ccc(C)c(C)c1,-,H37Rv,QcrB M342T,-,MIC90,turbidity / fluorescence,35 µM
Fc1cnccc1-c1nnc2sc(COc3ccccc3)nn12,-,Clinical isolate MDRTB,Isoniazid- and rifampin-resistant,-,MIC,-,2 µg/mL
C/C(=N\OCc1nnc(-c2ccc(N)cc2)o1)c1ccccc1,-,-,-,12.5 µg/mL,inhibition,-,7–56%
CC1CCCC2(C1)SCC(=O)N2NC(=O)Cc1csc2nc(-c3ccccc3)cn12.O,-,H37Rv,-,-,MIC,-,>6.25 µg/mL
NC(=O)[C@H]1C[C@H](O)CN1C(=O)c1cnc2ccccc2c1,-,H37Rv,-,12.5 µg/mL,inhibition,BACTEC,13%
Nc1nc(N)nc(-c2ccc(OC(c3ccccc3)c3ccccc3)cc2)n1,-,H37Rv,-,-,MIC,resazurin,18.87 µM
NNC(=O)CNc1ccc2ccccc2c1,-,H37Rv,-,-,EC50,-,0.5 µg/mL
CC1CN(c2c(F)cc3c(=O)c(C(=O)O)cn(C4CC4)c3c2F)CC(C)N1,-,CSU22,-,-,MIC,-,≤0.125 µg/mL
NC(=O)c1ncn([C@@H]2O[C@H](CO)[C@@H](O)[C@H]2O)c1N,-,H37Rv,-,12.5 µg/mL,inhibition,BACTEC,3%
NC(=O)c1ccc2c(=O)c3ccccc3oc2c1,-,H37Rv,-,-,MIC,-,>32 µg/mL
Cc1cc2nc(CC(=O)c3ccncc3)c(CC(=O)c3ccncc3)nc2cc1C,-,H37Rv,-,-,MIC bound,BACTEC,>12.5 µg/mL
CCc1nc2ccc(C)cc2n1CCCSc1ccc(OC)cc1,-,H37Rv,QcrB M342T,-,MIC90,turbidity / fluorescence,98 µM
Fc1ccc(OCc2nn3c(Cc4ccc5ccccc5c4)nnc3s2)cc1,-,Clinical isolate MDRTB,Isoniazid- and rifampin-resistant,-,MIC,-,8 µg/mL
CC(C)OC(=O)NNC(=O)c1ccncc1,VERO,H37Rv,-,-,MIC,-,6.25 µg/mL
COc1cccc(/C=C2\Cc3ccccc3C2=O)c1,-,H37Rv,-,12.5 µg/mL,inhibition,broth dilution / resazurin,79%
c1ccc(C(=NOCc2nnc(N3CCCCC3)o2)c2ccccc2)cc1,-,-,-,12.5 µg/mL,inhibition,-,7–56%
COC(=O)c1ccc2c(=O)c3ccccc3oc2c1C(=O)OC,-,H37Rv,-,-,MIC,-,20 µg/mL
O=C(NNS(=O)(=O)c1ccccc1)c1ccc([N+](=O)[O-])cc1,-,H37Rv,-,12.5 µg/mL,inhibition,BACTEC,17%
CC1CCCC2(C1)SC(C)C(=O)N2NC(=O)Cc1csc2nc(-c3ccccc3)cn12.O,-,H37Rv,-,6.25 µg/mL,inhibition,-,99%
CN(C)c1ccc(C2CC(c3ccccc3)=NN2C(=O)c2ccc(O)cc2)cc1,-,H37Ra,-,-,MIC,MTT,65 µM
C[C@H]1COc2c(N3CCN(C)CC3)c(F)cc3c(=O)c(C(=O)O)cn1c23,-,CSU22,-,-,MIC,-,0.5 µg/mL
CCc1nc2ccccc2n1CCCCNc1ccc(-c2ccccn2)cc1,-,H37Rv,Rv1339 V90M,-,fold resistance,turbidity / fluorescence,12
COc1cccc(/C=C2\CCCc3ccccc3C2=O)c1,-,H37Rv,-,12.5 µg/mL,inhibition,broth dilution / resazurin,8%
C/C(=N\OCCc1nnc(N2CCOCC2)o1)c1ccccc1,-,-,-,12.5 µg/mL,inhibition,-,7–56%
O=c1oc(-c2ccccc2)cn1-c1ccccc1,-,H37Rv,-,-,MIC bound,BACTEC,>12.5 µg/mL
CN[C@@H]1[C@H](O[C@H]2[C@H](O[C@H]3[C@H](O)[C@@H](O)[C@H](N=C(N)N)[C@@H](O)[C@@H]3N=C(N)N)O[C@@H](C)[C@]2(O)C=O)O[C@@H](CO)[C@H](O)[C@H]1O,-,H37Rv,Isoniazid-resistant,-,MIC90,resazurin / fluorescence,0.46 µg/mL
O=[n+]1c2ccc(Cl)cc2n([O-])c2ccc(Cl)cc21,-,H37Rv,-,-,MIC bound,BACTEC,≤12.5 µg/mL
Cc1c([N+](=O)[O-])cc2c(=O)c3cc([N+](=O)[O-])ccc3oc2c1C,-,H37Rv,-,-,MIC,-,>8 µg/mL
CCOC(=O)/C=C1\SC(N2CCCCC2)C(=O)N1CC,-,H37Rv,-,-,MIC bound,BACTEC,>12.5 µg/mL
Fc1ccc(-c2nnc3sc(COc4ccc5ccccc5c4)nn23)cc1,-,Clinical isolate MDRTB,Isoniazid- and rifampin-resistant,-,MIC,-,4 µg/mL
O.O=C(Cc1csc2nc(-c3ccccc3)cn12)NN1C(=O)CSC12CCCCC2,VERO,H37Rv,-,-,EC50,-,<6.25 µg/mL
CCOc1ccc(Nc2ccc(N=Nc3c(N)c(C)cc(N=Nc4ccc(-c5ccc(N=Nc6ccc(O)c(C(=O)O)c6)cc5)cc4)c3N)cc2S(=O)(=O)O)cc1,-,H37Rv,-,6.25 µg/mL,inhibition,resazurin,-17%
COC(=O)c1cccc2c(=O)c3ccccc3oc12,-,H37Rv,-,-,MIC,-,>32 µg/mL
C/C(=N\OCc1n[nH]c(=S)o1)c1ccccc1,-,-,-,12.5 µg/mL,inhibition,-,7–56%
CO[C@@H]1[C@@H](O[C@@H]2O[C@H](C)[C@@H](O[C@H]3C[C@@](C)(O)[C@@H](OC(=O)CC(C)C)[C@H](C)O3)[C@H](N(C)C)[C@H]2O)[C@@H](CC=O)C[C@@H](C)[C@@H](O)/C=C/C=C/C[C@@H](C)OC(=O)C[C@H]1OC(C)=O,-,H37Rv,-,-,MIC,BACTEC,≥12.8 µg/mL
NC[C@H]1O[C@H](O[C@H]2[C@H](O)[C@@H](O[C@H]3O[C@H](CO)[C@@H](O)[C@H](N)[C@H]3O)[C@H](N)C[C@@H]2N)[C@H](O)[C@@H](O)[C@@H]1O,-,H37Rv,Rifampicin-resistant,-,MIC90,resazurin / fluorescence,0.92 µg/mL
Nc1nc(N)nc(-c2ccc(OCc3ccccc3Cl)cc2)n1,-,H37Rv,-,-,MIC,resazurin,1.57 µM
C[C@]1(COc2ccc(N3CCC(Oc4ccc(OC(F)(F)F)cc4)CC3)cc2)Cn2cc([N+](=O)[O-])nc2O1,-,18 strains (SM-resistant),-,-,MIC90,-,0.013 µg/mL
O=[N+]([O-])c1ccc(OCc2nn3c(-c4ccc(Br)cc4)nnc3s2)cc1,-,Clinical isolate MDRTB,Isoniazid- and rifampin-resistant,-,MIC,-,4 µg/mL
CC1CN(c2c(F)cc3c(=O)c(C(=O)O)cn(C4CC4)c3c2F)CCN1,-,CSU27,-,-,MIC,-,≤0.125 µg/mL
Cc1ccc(C)n1NC(=O)c1ccc([N+](=O)[O-])cc1,-,Erdman,-,-,MIC,-,32 µg/mL
c1ccc(C(=NOCCc2nnc(N3CCCCC3)o2)c2ccccc2)cc1,-,-,-,12.5 µg/mL,inhibition,-,7–56%
N=c1nc(N)nc2c3cc(Br)ccc3nnn12,-,H37Rv,-,12.5 µg/mL,inhibition,BACTEC,13%
CCc1nc2ccccc2n1CCCCOc1ccc(C)c(Cl)c1,-,H37Rv,Rv1339 V90M,-,MIC90,turbidity / fluorescence,2.1 µM
Cc1ccc(C2CC(c3ccccc3)=NN2C(=O)c2ccc(O)cc2)cc1,-,H37Ra,-,-,MIC,MTT,70 µM
COc1ccc2nonc2c1,-,H37Rv,-,12.5 µg/mL,inhibition,BACTEC,-5%
C/C(=N\OCCc1nnc(-c2ccccc2)o1)c1ccccc1,-,-,-,12.5 µg/mL,inhibition,-,7–56%
Cc1cccc2oc3ccccc3c(=O)c12,-,H37Rv,-,-,MIC,-,>32 µg/mL
CCC(CCCN)Nc1cc(OC)cc2c(C)ccnc12,-,H37Rv,-,12.5 µg/mL,inhibition,BACTEC,7%
O=C(c1ccc(O)cc1)N1N=C(c2ccccc2)CC1c1ccc(Cl)cc1,-,H37Ra,-,-,MBC,visual reading,266 µM

10 of the rows above, restated:

SMILES	cells	strain	mutations	tested at	read-out	method	result
Fc1cnccc1-c1nnc2sc(COc3ccccc3)nn12	-	Clinical isolate MDRTB	Isoniazid- and rifampin-resistant	-	MIC	-	2 µg/mL
c1ccc(C(=NOCCc2nnc(N3CCCCC3)o2)c2ccccc2)cc1	-	-	-	12.5 µg/mL	inhibition	-	7–56%
Cc1ccc(/C=C2\COc3ccccc3C2=O)cc1	-	H37Rv	-	-	EC50	broth dilution / resazurin	1.43 µg/mL
Cc1ccc(C2CC(c3ccccc3)=NN2C(=O)c2ccc(O)cc2)cc1	-	H37Ra	-	-	MIC	MTT	70 µM
COc1ccc(/C=C2\Oc3c(Br)c(OC)cc(OC)c3C2=O)cc1	-	H37Rv	-	12.5 µg/mL	inhibition	BACTEC	-9%
C=C1CC(OC(C)=O)/C=C(\C)CC[C@@H](C(C)(C)O)C[C@@H]1O	-	H37Rv	-	12.5 µg/mL	inhibition	BACTEC	-2%
Fc1ccc(-c2nnc3sc(COc4ccc5ccccc5c4)nn23)cc1	-	Clinical isolate MDRTB	Isoniazid- and rifampin-resistant	-	MIC	-	4 µg/mL
COc1cccc(/C=C2\Cc3ccccc3C2=O)c1	-	H37Rv	-	12.5 µg/mL	inhibition	broth dilution / resazurin	79%
CC(C)=CCOc1c2ccoc2cc2oc(=O)ccc12.NNC(=O)c1ccncc1	-	H37Rv clinical isolate CRY4	Ethambutol-resistant	-	MIC100	agar	3.12 µg/mL
NNC(=O)c1ccncc1	-	H37Ra	-	-	MIC	MTT	5 µM